System: sheep red blood cells (sRBCs)
Test: Hemolytic activity
Format: cell-based
Settings: 37 °C, one hour; for hemolysis: 64 µM peptide, sRBCs, 0.1% Triton X-100 = 100%; for HC10, concentration that causes 10% hemolysis of sRBC: 4% v/v sRBCs in PBS, absorbance 405 nm
Experimental: The hemolytic activity of peptides was assessed by measuring the release of hemoglobin from sheep red blood cells (sRBCs), as described previously. To create a 4% v/v erythrocyte dilution, fresh sRBCs were washed with phosphate-buffered saline (PBS), centrifuged, and then resuspended in PBS. Next, 100 μL of serially diluted peptides was added to a sterile 96-well plate, followed by the addition of 100 µL of sRBCs. The plate was then incubated at 37 °C for one hour. After incubation, the plate was centrifuged at 1000 relative centrifugal force (RCF), and the supernatant was transferred to a new 96-well plate. Hemoglobin release was measured at 405 nm using a microplate ELISA reader. A total of 0.1% Triton X-100 treatment was utilized to induce 100% hemolysis, while PBS was employed as the reference for 0% hemolysis. The percentage of hemolytic activity was determined using the formula % Hemolysis = [(Abs in peptide solution − Abs in PBS)/(Abs of 0.1% Triton X-100 − Abs of PBS)] × 100.

Compound	hemolysis [%]	HC10, concentration that causes 10% hemolysis of sRBC [µM]
CC[C@H](C)[C@H](NC(=O)CN)C(=O)NCC(=O)N[C@@H](C)C(=O)N[C@H](C(=O)NCCCCCC(=O)N[C@@H](CCCCN)C(=O)N[C@H](C(=O)N[C@@H](CC(C)C)C(=O)N[C@H](C(=O)N[C@H](C(=O)NCC(=O)N[C@@H](CC(C)C)C(=O)N1CCC[C@H]1C(=O)N[C@@H](C)C(=O)N[C@@H](CC(C)C)C(=O)N[C@H](C(=O)N[C@@H](CO)C(=O)N[C@@H](Cc1c[nH]c2ccccc12)C(=O)N[C@H](C(=O)N[C@@H](CCCCN)C(=O)N[C@@H](CCCNC(=N)N)C(=O)N[C@@H](CCCCN)C(=O)N[C@@H](CCCNC(=N)N)C(=O)N[C@@H](CCC(N)=O)C(=O)N[C@@H](CCC(N)=O)C(N)=O)[C@@H](C)CC)[C@@H](C)CC)[C@@H](C)O)[C@@H](C)O)C(C)C)C(C)C [Mel-LX1]	11	64
CC[C@H](C)[C@H](NC(=O)CN)C(=O)NCC(=O)N[C@@H](C)C(=O)N[C@H](C(=O)N[C@@H](CC(C)C)C(=O)N[C@@H](CCCCN)C(=O)N[C@H](C(=O)NCCCCCC(=O)N[C@H](C(=O)N[C@H](C(=O)NCC(=O)N[C@@H](CC(C)C)C(=O)N1CCC[C@H]1C(=O)N[C@@H](C)C(=O)N[C@@H](CC(C)C)C(=O)N[C@H](C(=O)N[C@@H](CO)C(=O)N[C@@H](Cc1c[nH]c2ccccc12)C(=O)N[C@H](C(=O)N[C@@H](CCCCN)C(=O)N[C@@H](CCCNC(=N)N)C(=O)N[C@@H](CCCCN)C(=O)N[C@@H](CCCNC(=N)N)C(=O)N[C@@H](CCC(N)=O)C(=O)N[C@@H](CCC(N)=O)C(N)=O)[C@@H](C)CC)[C@@H](C)CC)[C@@H](C)O)[C@@H](C)O)C(C)C)C(C)C [Mel-LX2]	6	128
CC[C@H](C)[C@H](NC(=O)CN)C(=O)NCC(=O)N[C@@H](C)C(=O)N[C@H](C(=O)N[C@@H](CC(C)C)C(=O)N[C@@H](CCCCN)C(=O)N[C@H](C(=O)N[C@@H](CC(C)C)C(=O)N[C@H](C(=O)N[C@H](C(=O)NCC(=O)NCCCCCC(=O)N1CCC[C@H]1C(=O)N[C@@H](C)C(=O)N[C@@H](CC(C)C)C(=O)N[C@H](C(=O)N[C@@H](CO)C(=O)N[C@@H](Cc1c[nH]c2ccccc12)C(=O)N[C@H](C(=O)N[C@@H](CCCCN)C(=O)N[C@@H](CCCNC(=N)N)C(=O)N[C@@H](CCCCN)C(=O)N[C@@H](CCCNC(=N)N)C(=O)N[C@@H](CCC(N)=O)C(=O)N[C@@H](CCC(N)=O)C(N)=O)[C@@H](C)CC)[C@@H](C)CC)[C@@H](C)O)[C@@H](C)O)C(C)C)C(C)C [Mel-LX3]	27	64
CC[C@H](C)[C@H](NC(=O)CN)C(=O)NCC(=O)N[C@@H](C)C(=O)N[C@H](C(=O)N[C@@H](CC(C)C)C(=O)N[C@@H](CCCCN)C(=O)N[C@H](C(=O)N[C@@H](CC(C)C)C(=O)N[C@H](C(=O)N[C@H](C(=O)NCC(=O)N[C@@H](CC(C)C)C(=O)N1CCC[C@H]1C(=O)N[C@@H](C)C(=O)NCCCCCC(=O)N[C@H](C(=O)N[C@@H](CO)C(=O)N[C@@H](Cc1c[nH]c2ccccc12)C(=O)N[C@H](C(=O)N[C@@H](CCCCN)C(=O)N[C@@H](CCCNC(=N)N)C(=O)N[C@@H](CCCCN)C(=O)N[C@@H](CCCNC(=N)N)C(=O)N[C@@H](CCC(N)=O)C(=O)N[C@@H](CCC(N)=O)C(N)=O)[C@@H](C)CC)[C@@H](C)CC)[C@@H](C)O)[C@@H](C)O)C(C)C)C(C)C [Mel-LX4]	3	128
CC[C@H](C)[C@H](NC(=O)CN)C(=O)NCC(=O)N[C@@H](C)C(=O)N[C@H](C(=O)NCCCCCC(=O)N[C@@H](CCCCN)C(=O)N[C@H](C(=O)NCCCCCC(=O)N[C@H](C(=O)N[C@H](C(=O)NCC(=O)NCCCCCC(=O)N1CCC[C@H]1C(=O)N[C@@H](C)C(=O)NCCCCCC(=O)N[C@H](C(=O)N[C@@H](CO)C(=O)N[C@@H](Cc1c[nH]c2ccccc12)C(=O)N[C@H](C(=O)N[C@@H](CCCCN)C(=O)N[C@@H](CCCNC(=N)N)C(=O)N[C@@H](CCCCN)C(=O)N[C@@H](CCCNC(=N)N)C(=O)N[C@@H](CCC(N)=O)C(=O)N[C@@H](CCC(N)=O)C(N)=O)[C@@H](C)CC)[C@@H](C)CC)[C@@H](C)O)[C@@H](C)O)C(C)C)C(C)C [Mel-LX5]	2	128
CC[C@H](C)[C@H](NC(=O)CN)C(=O)NCC(=O)N[C@@H](C)C(=O)N[C@H](C(=O)N[C@@H](CC(C)C)C(=O)N[C@@H](CCCCN)C(=O)N[C@H](C(=O)N[C@@H](CC(C)C)C(=O)N[C@H](C(=O)N[C@H](C(=O)NCC(=O)N[C@@H](CC(C)C)C(=O)N1CCC[C@H]1C(=O)N[C@@H](C)C(=O)N[C@@H](CC(C)C)C(=O)N[C@H](C(=O)N[C@@H](CO)C(=O)N[C@@H](Cc1c[nH]c2ccccc12)C(=O)N[C@H](C(=O)N[C@@H](CCCCN)C(=O)N[C@@H](CCCNC(=N)N)C(=O)N[C@@H](CCCCN)C(=O)N[C@@H](CCCNC(=N)N)C(=O)N[C@@H](CCC(N)=O)C(=O)N[C@@H](CCC(N)=O)C(N)=O)[C@@H](C)CC)[C@@H](C)CC)[C@@H](C)O)[C@@H](C)O)C(C)C)C(C)C [Melittin]	–	2
